Source: article doi:10.1101/249060 (bioRxiv, 2018)

Target: the molecule itself
Experiment: cryo-EM structure

B1: PrcA, α-subunit of the Mycobacterium tuberculosis 20S core particle (natural protein)
chain: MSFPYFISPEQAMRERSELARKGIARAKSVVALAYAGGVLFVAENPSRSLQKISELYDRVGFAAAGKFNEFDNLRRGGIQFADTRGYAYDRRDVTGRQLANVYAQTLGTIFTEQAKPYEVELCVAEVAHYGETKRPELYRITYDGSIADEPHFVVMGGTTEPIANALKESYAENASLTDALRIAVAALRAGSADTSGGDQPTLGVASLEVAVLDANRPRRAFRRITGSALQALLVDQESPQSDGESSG
  stoichiometry N: 7
